According to patent US8329685B1, “Enhancement of the action of anti-infective agents and of central and peripheral nervous system agents and transportation of nucleic acid substances” (priority 2001, dated 2012):
Read-outs that look alike come from different tables or passages of the source.

Test system: Fungi of the mycosis type
Conditions: 0.4% final concentration

SMILES: Clc1ccc(COC(Cn2ccnc2)c2ccc(Cl)cc2Cl)c(Cl)c1 (stereo not shown) [Free Miconazole, Miconazole nitrate]
- viability of fungi (30 min after single exposure): 80%
- viability of fungi (4 hours after single exposure): 70%
- viability of fungi (11 days after single exposure): 30%
- viability of fungi (18 days after single exposure): 15%
